The values that follow come from PubChem BioAssay AID834 (PCMD, 2007).

Molecules are shown by their SMILES. The list shows a part of the results, in another mix than the full data. Active and inactive are the calls of the source.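 How the source made its calls: active means inhibition above 20%; inactive means inhibition below 20%.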

This assay is described as follows: clotrimazole potentiators killing Candida biofilms, primary screen, with clotrimazole, Alamar Blue (AID 834).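 Further: preformed 24 hr biofilms exposed to compound for 48 hr; 0% = biofilm without compound and 100% = blank killed by clotrimazole plus chlorhexidine.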 The settings on record: C. albicans biofilm + clotrimazole, at 6 µM, active compounds read high. (Alamar Blue is a resazurin reagent that responds to reducing activity.)
`O=C(NCC1(N2CCOCC2)CCCCC1)c1cc(=O)[nH]c2ccccc12`: the inhibition was inactive: -1.54%.

Turning to `N#CC1(Nc2ccccc2)CCN(CCc2ccccc2)CC1`, the inhibition was inactive: -4.87%. Turning to `O=C(OC1CN2CCC1CC2)C1c2ccccc2Oc2ccccc21` (centres undefined), the inhibition is inactive: 2.01%. Next, `O=C(NCC1(N2CCOCC2)CCCCC1)c1cc2ccccc2o1`: inactive: 6.88%.

On to `CCC(CO)(C(=O)OC1CN2CCC1CC2)c1ccccc1` (centres undefined), for which the inhibition is inactive: 1.33%. With `CCOc1ncccc1C(=O)NCC1(N2CCOCC2)CCCCC1` the figure was inactive: 7.84%; with `Fc1ccccc1NC1CCN(Cc2ccccc2)CC1`, inactive: 6.08%.

As for `c1ccc(CN2CCC(Nc3ccccc3)CC2)cc1`, the inhibition is inactive: -1.37%. For the compound `N/C(=N\O)c1c(N)no[n+]1[O-]`, the inhibition is inactive: 3.75%.

As a reminder, the inhibition is the drop in the measured response relative to a control, in per cent.
